Data from patent US20030235877A1, “Conjugates of haptens to beta-lactam derivatives and their use for detecting and/or quantifying haptens in solution and device for implementation thereof” (priority 1996, published 2003).

By UniProt entry, the sequences of proteins in these tests, tags left out. Residues count along the entry.
UniProt P05364, 21-381 limits assumed: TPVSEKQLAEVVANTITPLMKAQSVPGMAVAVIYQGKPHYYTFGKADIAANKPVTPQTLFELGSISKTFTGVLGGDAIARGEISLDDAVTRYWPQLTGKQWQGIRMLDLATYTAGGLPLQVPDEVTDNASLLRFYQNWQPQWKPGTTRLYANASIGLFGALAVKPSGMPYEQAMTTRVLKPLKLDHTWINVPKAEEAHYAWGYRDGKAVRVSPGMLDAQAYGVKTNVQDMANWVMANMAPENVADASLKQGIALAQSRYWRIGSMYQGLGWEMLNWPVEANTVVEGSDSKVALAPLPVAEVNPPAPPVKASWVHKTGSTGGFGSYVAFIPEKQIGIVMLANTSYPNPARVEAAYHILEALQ

These molecules were tested against β-lactamase of Enterobacter cloacae P99 (Enterobacter cloacae, UniProt P05364) (assay: Ki of conjugates, calculated using the β-lactamase of Enterobacter cloacae P99).
Assay type: biochemical
Excerpt: The particular mode of conjugation claimed in the present invention guarantees to maintain kinetic parameters (Km, Ki, kcat and Ka=k2/K, where Km is the enzyme Michaelis-Menten constant, Ki is the inhibitor-enzyme complex dissociation constant, kcat the catalytic constant and Ka the apparent second-order rate constant for acyl enzyme formation respectively) toward β-lactamases and penicillin detectors, which are essentially the same as those of common penicillins.
^x(Column 9): calculated using the β-lactamase of Enterobacter cloacae P99
In the case of `COC(=O)C1C(OC(=O)c2ccc(CNC(=O)C(C(=O)NC3C(=O)N4C3SC(C)(C)C4C(=O)O)c3ccccc3)cc2)CC2CCC1N2C` (stereo not shown), the Ki is reported as 84 nM. Work on `Cc1onc(-c2ccc(OCCC(=O)NCCCCC(=O)OC3CCC4C5CCC6=CC(=O)CCC6(C)C5CCC34C)cc2)c1C(=O)NC1C(=O)N2C1SC(C)(C)C2C(=O)O` (stereo not shown) yielded a Ki of 23 nM. `Cc1onc(-c2ccc(OCCC(=O)NCCCCC(=O)OC3CCC4C5CCC6=CC(=O)CCC6C5CCC34C)cc2)c1C(=O)NC1C(=O)N2C1SC(C)(C)C2C(=O)O` (stereo not shown) gave a Ki of 29 nM. For `CC(=O)C1CCC2C3CCC4=CC(=O)CCC4(C)C3C(OCCC(=O)Nc3ccc(-c4noc(C)c4C(=O)NC4C(=O)N5C4SC(C)(C)C5C(=O)O)cc3)CC12C` (stereo not shown), the Ki was 25 nM.
